Test results from patent US7157083B2, “Compositions and methods for treating retroviral infections” (priority 1998, dated 2007).

Tests used:
ROJO (low passage HIV-1) [1] = test: Study 2 hyaluronidase chronic overlay testing: RT activity after secondary ROJO infection; assay type: cell-based; details: Table 5; 2.5 units/mL; control uninfected PBMCs; Macrophage + PBMCs
Excerpt: (§1) Percent virus control (% VC) in the following tables is the mean RT activity (cpm) as a percentage of a virus control. Percent cell control (% CC) is the mean XTT absorbance as a percentage of a cell control.
Method A. Peripheral blood monocytes were isolated from normal HIV-1 negative donors by plastic adherence following ficall hypaque purification of the buffy coat PBMCs. For isolation of adherent cells, 3×10^6/ml non-PHA stimulated peripheral blood cells were resuspended in Hanks buffered saline (with calcium and magnesium) supplemented with 10% human AB serum, and 200 μl per well placed in a 96 well lat bottomed microtiter plate. The cells were incubated overnight at 37° C., 5% CO2. Non-adherent cells were removed by washing six time with a Ca^++, Mg^++ containing medium. The adherent cells after the final wash were supplemented with RPMI 1640 supplemented with 15% fetal bovine serum (heat inactivated), 2 mM L-glutamine, 100 U/mL penicillin, 100 μg/mL streptomycin and 10 μg/mL gentamycin, and cultured for 7 days. […] The cultures are carefully monitored for confluency prior to assay.
Reverse transcriptase (RT) activity was measured in cell-free supernatants. […] Opti-Fluor O was added to each sample and incorporated radioactivity was quantitated utilizing a Wallace 1450 Microbetaplus liquid scintillation counter. […]

Rojo virus = test: Study 3 hyaluronidase sensitization assay: RT activity after Rojo challenge of naive PBMCs; assay type: cell-based, HIV-1; details: 0.78 μg/mL; 50 μL Rojo; Without PHA/IL2
Description: as §1
(§2) Reverse transcriptase (RT) activity was measured in cell-free supernatants. Tritiated thymidine triphosphate (NEN) (TTP) was resuspended in distilled H2O at […]. Poly rA and oligo dT were prepared as a stock solution which was kept at −20° C. The RT reaction buffer was prepared fresh on a daily basis and consists of 125 μL 1.0 M EGTA, 125 μL d H2O, 110 μL 10% SDS, 50 μL 1.0 M Tris (pH 7.4), 50 μL 1.0 M DTT, and 40μ1.0 M MgCl2. These three solutions were mixed together in a ratio of 2 parts TTP, 1 part poly rA:oligo dT, and 1 part reaction buffer. Ten microliters of this reaction mixture was placed in a round bottom microtiter plate and 15 μL of virus containing supernatant was added and mixed. The plate was incubated at 37° C. in a water bath with a solid support to prevent submersion of the plate and incubated for 60 minutes. […] Opti-Fluor O was added to each sample and incorporated radioactivity was quantitated utilizing a Wallace 1450 Microbetaplus liquid scintillation counter. […]

PBMCs [2] = test: Study 2 hyaluronidase chronic overlay testing: cell viability (XTT); assay type: cell-based, human
Description: as §1
Assay method. Seven day old Rojo chronically infected (and uninfected control) PBMCs are pre-treated with two fold dilutions of HLDA-1 for 48 hours. Treated cells are 2× washed with PBS and overlayed onto seven day old macrophages for 72 hours at which time the PBMCs were washed off and replaced with fresh uninfected pha blast PBMCs in the presence of IL-1 (5.0 ng/mL) and IL-2 (20U/mL). Overlayed cells are incubated for 48 hours 50% of cells transferred to a fresh 96 well plate, and then both the original and transfer plate infected with ROJO at a standard MOI. Samples for reverse transcriptase and toxicity testing were processed on day 7 post secondary infection.

PBMCs [3] = test: Study 4 sensitization: cell viability; assay type: cell-based, human
Description: as §1
(§3) In the following set of experiments, virus {IIIB(Dec. 1, 2000-4 uL/well), GP120 IIIB (0.5 u g/mL) and Rojo(Oct. 23, 2000-1.25 uL/well)} was treated overnight in 2 fold dilutions of the compound Hyaluronidase and then transferred to two types of macrophage (Turpin and Standard methodology) 96 well plates for 24 hours. (Turpin methodology differs from standard methodology in that it utilizes purer, more sensitive macrophages having a higher percentage of monocytes and macrophages). The macrophage plates were then washed with HBSS multiple times. Fresh mixed pha blast PBMCs (5×10e4/well) were placed on the macrophage cells, allowed to incubate for 72 hours and then harvested and reset in a fresh 96 well plate. The PBMCs were then challenged overnight with the respective virus (IIIB or Rojo) at a standard MOI for that virus. The PBMCs were 5× in plate spin washed with DPBS, incubated 24 hours, at which time 5×10e4 fresh pha blast PBMCs/well were added. The culture was incubated an additional 6 days and then assayed for RT activity.
(§4) Where viability corrections were conducted, they were performed by dividing the RT CPM value by the toxicity absorbance in order to compensate for well to well variations noted in the cell titer toxicity noted. Variance is believed to be due to well to well harvest inconsistencies when removing the PBMCs from the macrophage plates.

ROJO (low passage HIV-1) [4] = test: Study 4 sensitization, Turpin and standard macrophages: RT activity after Rojo challenge; assay type: cell-based; details: Rojo Sensitized
Description: as §1, §3, §4

IIIB (HIV IIIB virus) = test: Study 4 sensitization, Turpin and standard macrophages: RT activity after IIIB challenge; assay type: cell-based; details: IIIB Sensitized, Turpin
Description: as §1
as §2, with “mixed.” for “mixed. The plate was incubated at 37° C. in a water bath with a solid support to prevent submersion of the plate and incubated for 60 minutes.”
Where viability corrections were conducted, they were performed by dividing the RT CPM value by the toxicity absorbance in order to compensate for well to well variations noted in the cell titer toxicity noted.

With Hyaluronidase the “RT activity % VC” value (ROJO (low passage HIV-1) [1]) was 91.6%, the “RT activity % VC” value (Rojo virus) was 111.9% and the “cell viability % CC” value (PBMCs [2]; Table 4, 5 units/mL, Rojo chronic PBMCs, Macrophage + PBMCs) was 115.5%. The “cell viability % CC” value (PBMCs [2]; Table 4, 7.5 units/mL, Rojo chronic PBMCs, Transfer PBMCs) was 111.9%, the “cell viability % CC” value (PBMCs [2]; Table 4, 15 units/mL, Rojo chronic PBMCs, Macrophage + PBMCs) was 107.4% and the “cell viability % CC” value (PBMCs [2]; Table 4, 15 units/mL, Rojo chronic PBMCs, Transfer PBMCs) was 104.9%. The “cell viability % CC” value (PBMCs [2]; Table 4, 20 units/mL, Rojo chronic PBMCs, Transfer PBMCs) was 97.3%, the “cell viability % CC” value (PBMCs [2]; Table 4, 20 units/mL, control uninfected PBMCs, Transfer PBMCs) was 111.1% and the “cell viability % CC” value (PBMCs [2]; Table 5, 2.5 units/mL, control uninfected PBMCs, Macrophage + PBMCs) was 85.6%. The “cell viability % CC” value (PBMCs [2]; Table 5, 3.75 units/mL, Rojo chronic PBMCs, Macrophage + PBMCs) was 120.6%, the “cell viability % CC” value (PBMCs [2]; Table 5, 5 units/mL, Rojo chronic PBMCs, Transfer PBMCs) was 110.2% and the “cell viability % CC” value (PBMCs [3]; 0.097656 μg/mL, IIIB Sensitized, Turpin) was 102.4%. For the same substance, the “cell viability % CC” value (PBMCs [3]; 0.097656 μg/mL, Rojo Sensitized, Standard) was 124.4%, the “cell viability % CC” value (PBMCs [3]; 0.097656 μg/mL, Rojo Sensitized, Turpin) was 92.3% and the “cell viability % CC” value (PBMCs [3]; 0.195313 μg/mL, GP120IIIB Sensitized, Standard) was 122.8%. The “cell viability % CC” value (PBMCs [3]; 0.195313 μg/mL, GP120IIIB Sensitized, Turpin) was 98.4%, the “cell viability % CC” value (PBMCs [3]; 0.195313 μg/mL, IIIB Sensitized, Standard) was 124.7% and the “cell viability % CC” value (PBMCs [3]; 0.195313 μg/mL, IIIB Sensitized, Turpin) was 86.5%. The “cell viability % CC” value (PBMCs [3]; 0.195313 μg/mL, Rojo Sensitized, Turpin) was 98.6%, the “cell viability % CC” value (PBMCs [3]; 0.390625 μg/mL, GP120IIIB Sensitized, Standard) was 120.0% and the “cell viability % CC” value (PBMCs [3]; 0.390625 μg/mL, IIIB Sensitized, Turpin) was 84.8%. The “cell viability % CC” value (PBMCs [3]; 0.390625 μg/mL, Rojo Sensitized, Standard) was 98.6%, the “cell viability % CC” value (PBMCs [3]; 0.390625 μg/mL, Rojo Sensitized, Turpin) was 81.3% and the “cell viability % CC” value (PBMCs [3]; 0.78125 μg/mL, GP120IIIB Sensitized, Standard) was 95.0%. The “cell viability % CC” value (PBMCs [3]; 0.78125 μg/mL, GP120IIIB Sensitized, Turpin) was 90.8%, the “cell viability % CC” value (PBMCs [3]; 0.78125 μg/mL, IIIB Sensitized, Standard) was 110.7% and the “cell viability % CC” value (PBMCs [3]; 0.78125 μg/mL, IIIB Sensitized, Turpin) was 109.1%. For the same substance, the “cell viability % CC” value (PBMCs [3]; 0.78125 μg/mL, Rojo Sensitized, Turpin) was 86.3%, the “cell viability % CC” value (PBMCs [3]; 1.5625 μg/mL, GP120IIIB Sensitized, Standard) was 104.2% and the “cell viability % CC” value (PBMCs [3]; 1.5625 μg/mL, IIIB Sensitized, Standard) was 106.6%. For the same substance, the “cell viability % CC” value (PBMCs [3]; 1.5625 μg/mL, IIIB Sensitized, Turpin) was 90.2%, the “cell viability % CC” value (PBMCs [3]; 1.5625 μg/mL, Rojo Sensitized, Standard) was 110.1% and the “cell viability % CC” value (PBMCs [3]; 1.5625 μg/mL, Rojo Sensitized, Turpin) was 88.7%. The “cell viability % CC” value (PBMCs [3]; 3.125 μg/mL, GP120IIIB Sensitized, Standard) was 109.2%, the “cell viability % CC” value (PBMCs [3]; 3.125 μg/mL, GP120IIIB Sensitized, Turpin) was 87.4% and the “cell viability % CC” value (PBMCs [3]; 3.125 μg/mL, IIIB Sensitized, Turpin) was 80.3%. The “cell viability % CC” value (PBMCs [3]; 3.125 μg/mL, Rojo Sensitized, Standard) was 103.8%, the “cell viability % CC” value (PBMCs [3]; 3.125 μg/mL, Rojo Sensitized, Turpin) was 82.3% and the “cell viability % CC” value (PBMCs [3]; 6.25 μg/mL, GP120IIIB Sensitized, Standard) was 115.1%. The “cell viability % CC” value (PBMCs [3]; 6.25 μg/mL, Rojo Sensitized, Standard) was 102.8%, the “cell viability % CC” value (PBMCs [3]; 6.25 μg/mL, Rojo Sensitized, Turpin) was 81.0% and the “cell viability % CC” value (PBMCs [3]; 12.5 μg/mL, GP120IIIB Sensitized, Standard) was 123.1%. For the same substance, the “cell viability % CC” value (PBMCs [3]; 12.5 μg/mL, IIIB Sensitized, Standard) was 101.5%, the “cell viability % CC” value (PBMCs [3]; 12.5 μg/mL, IIIB Sensitized, Turpin) was 128.5% and the “cell viability % CC” value (PBMCs [3]; 12.5 μg/mL, Rojo Sensitized, Standard) was 103.1%. The “cell viability % CC” value (PBMCs [3]; 12.5 μg/mL, Rojo Sensitized, Turpin) was 81.8%, the “cell viability % CC” value (PBMCs [3]; 25 μg/mL, GP120IIIB Sensitized, Standard) was 87.1% and the “cell viability % CC” value (PBMCs [3]; 25 μg/mL, GP120IIIB Sensitized, Turpin) was 91.4%. The “cell viability % CC” value (PBMCs [3]; 25 μg/mL, IIIB Sensitized, Standard) was 82.1%, the “cell viability % CC” value (PBMCs [3]; 25 μg/mL, IIIB Sensitized, Turpin) was 91.6% and the “cell viability % CC” value (PBMCs [3]; 25 μg/mL, Rojo Sensitized, Standard) was 92.9%. For the same substance, the “RT activity % VC” value (ROJO (low passage HIV-1) [4]; 0.097656 μg/mL, Standard) was 82.2%, the “RT activity % VC” value (ROJO (low passage HIV-1) [4]; 0.195313 μg/mL, Standard) was 91.8% and the “RT activity % VC” value (ROJO (low passage HIV-1) [4]; 0.195313 μg/mL, Turpin) was 82.9%. The “RT activity % VC” value (ROJO (low passage HIV-1) [4]; viability corrected, 0.195313 μg/mL, Standard) was 82.5%, the “RT activity % VC” value (ROJO (low passage HIV-1) [4]; viability corrected, 0.390625 μg/mL, Turpin) was 85.0% and the “RT activity % VC” value (IIIB (HIV IIIB virus); 0.390625 μg/mL) was 84.5%. The “RT activity % VC” value (IIIB (HIV IIIB virus); 3.125 μg/mL) was 86.5%.
